Measurements reported in PubChem BioAssay AID1259414 (Drosophila RNAi Screening Center, 2018).
The deposit covers about 24,000 reagents; below is a random part of those that have a named target and a result. Over the whole deposit, about 1,210 (5%) were called active. 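Inactive calls also include excluded dsRNAs with several or no targets, genes unexpressed in JW18, and well A1, regardless of score.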 Names joined by + are all predicted targets of the reagent.

Purpose: 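Host factors increasing or decreasing Wolbachia levels in cultured fly cells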 (primary screen)
System: Drosophila JW18 cells infected with Wolbachia
Reagents: long dsRNA against Drosophila genes, 0.25 µg dsRNA per well of a 384-well plate
Duration: 5 days
Conditions: cells persistently infected with Wolbachia before knock-down; no added drug
Measured: 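Automated imaging of bacterial rRNA staining divided by host cell count, reported as plate-normalised robust z-score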
Reading the numbers: Wolbachia per cell robust z: higher = more Wolbachia per host cell than the plate typical
Active means: 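Active if absolute robust z reaches 1.5 in two or more of three replicates, leaving out multi- or no-target dsRNAs, genes unexpressed in JW18 and A1 wells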

| target gene | amplicon | Wolbachia per cell robust z, rep 1 | Wolbachia per cell robust z, rep 2 | Wolbachia per cell robust z, rep 3 | call |
| --- | --- | --- | --- | --- | --- |
| Poxm | DRSC16793 | 0.0997 | 0.131 | -0.422 | inactive |
| Poxm | DRSC22839 | 0.64 | -0.546 | 0.857 | inactive |
| CG9890 | DRSC04590 | -0.416 | 0.196 | 0.396 | inactive |
| CG9890 | DRSC25594 | 0.318 | 0.261 | -0.0392 | inactive |
| CG14957 | DRSC08416 | -5.19 | 0.837 | 0.359 | inactive |
| CG14657 | DRSC12219 | -6.36 | 0.0155 | 0.392 | inactive |
| CG14657 | DRSC12243 | 0.911 | -0.0411 | -0.181 | inactive |
| dmrt93B | DRSC15865 | -1.07 | -0.424 | 0.258 | inactive |
| dmrt93B | DRSC29931 | -0.188 | -0.712 | 0.374 | inactive |
| CG10283 | DRSC02034 | -0.509 | 0.633 | 1.78 | inactive |
| CG10283 | DRSC25302 | -0.32 | -5.05 | -0.125 | inactive |
| CSN7 | DRSC06807 | 0.522 | 0.435 | 2.05 | inactive |
| CSN7 | DRSC06808 | 0.756 | -0.361 | 0.335 | inactive |
| CG31933 | DRSC00457 | -0.55 | 0.21 | -0.851 | inactive |
| axo | DRSC08116 | 0.351 | 0.357 | 0.463 | inactive |
| axo | DRSC08324 | 0.774 | -0.514 | -3.45 | inactive |
| axo | DRSC21337 | -0.984 | -1.5 | 0.264 | inactive |
| axo | DRSC23087 | -0.405 | 0.00467 | 1.36 | inactive |
| axo | DRSC28552 | -0.179 | -1.45 | -1.32 | inactive |
| CG13330 + Vmat | DRSC28600 | 0.637 | -0.246 | -0.043 | inactive |
| CG2336 | DRSC12581 | -1.54 | 0.607 | 0.776 | inactive |
| CG8204 | DRSC07106 | 1.05 | 0.927 | -0.519 | inactive |
| CG17272 | DRSC15211 | 0.321 | -1.88 | -0.187 | inactive |
| CG15278 | DRSC02481 | 0.148 | 0.693 | 1.41 | inactive |
| CG8326 | DRSC20103 | 0.32 | 0.508 | 0.19 | inactive |
| CG8326 | DRSC28368 | 0.347 | -0.723 | -8.41 | inactive |
| CG4558 | DRSC18369 | -0.467 | 1.18 | -0.0776 | inactive |
| CG32196 | DRSC09548 | -0.0435 | 0.574 | -2.14 | inactive |
| CG31789 | DRSC01645 | 0.725 | -1.98 | -0.454 | inactive |
| CG31789 | DRSC25757 | 0.104 | 0.242 | 0.65 | inactive |
| Lgr1 | DRSC16675 | 0.452 | -0.742 | -1.41 | inactive |
| Reg-2 | DRSC08690 | 0.152 | 0.366 | -1.7 | inactive |
| Reg-2 | DRSC26888 | 0.4 | -0.329 | -0.427 | inactive |
| Reg-2 | DRSC41560 | 1.1 | 0.287 | 0.654 | inactive |
| CG4882 | DRSC04495 | -2 | -0.00923 | 0.543 | inactive |
| CG4882 | DRSC29963 | 0.329 | -0.505 | -8.22 | inactive |
| CG13937 | DRSC08406 | 0.562 | -0.724 | -0.85 | inactive |

Targets above whose gene name starts with P or p:
| target gene | amplicon | Wolbachia per cell robust z, rep 1 | Wolbachia per cell robust z, rep 2 | Wolbachia per cell robust z, rep 3 | call |
| --- | --- | --- | --- | --- | --- |
| Poxm | DRSC16793 | 0.0997 | 0.131 | -0.422 | inactive |
| Poxm | DRSC22839 | 0.64 | -0.546 | 0.857 | inactive |

Next results follow:
| target gene | amplicon | Wolbachia per cell robust z, rep 1 | Wolbachia per cell robust z, rep 2 | Wolbachia per cell robust z, rep 3 | call |
| --- | --- | --- | --- | --- | --- |
| Naa20B | DRSC21442 | 0.854 | -1.4 | 0.154 | inactive |
| Naa20B | DRSC27158 | -1.02 | -0.42 | -5.1 | inactive |
| Naa20B | DRSC39090 | -2.23 | 0.181 | 0.293 | inactive |
| CG5815 | DRSC14135 | -2.05 | -0.796 | 0.373 | inactive |
| CG5815 | DRSC27943 | -4.32 | 0.0722 | -0.52 | inactive |
| TwdlR | DRSC14736 | -0.424 | -0.833 | -1.18 | inactive |
| CG12728 | DRSC17883 | 1.43 | -0.46 | 0.397 | inactive |
| CG12728 | DRSC41534 | -0.175 | 0.693 | 0.982 | inactive |
| CG32074 | DRSC22246 | 0.361 | 0.839 | -1.15 | inactive |
| CG32074 | DRSC26504 | 0.353 | 1.23 | 0.447 | inactive |
| CG11269 | DRSC04094 | -0.203 | -0.382 | -2.96 | inactive |
| ADD1 | DRSC07135 | -0.356 | 0.23 | 0.281 | inactive |
| ADD1 | DRSC26133 | -0.537 | 1.12 | -1.11 | inactive |
| CG5793 + Obp93a | DRSC15220 | -0.651 | -0.266 | 0.235 | inactive |
| CG4367 | DRSC15568 | -0.411 | 0.396 | 0.508 | inactive |
| Atet | DRSC00263 | -3.9 | 1.06 | 1.08 | inactive |
| Srx | DRSC20005 | -1.37 | -1.22 | -0.859 | inactive |
| dnd | DRSC16064 | 0.332 | -0.617 | 0.438 | inactive |
| Cpr62Bc | DRSC08545 | -2.57 | -0.255 | -2.76 | inactive |
| Cpr62Bc | DRSC26471 | -1.96 | -1.72 | -0.838 | inactive |
| CG17002 | DRSC04978 | -3.97 | 0.681 | -1.14 | inactive |
| CG17002 | DRSC27573 | -0.303 | -1.5 | -1.47 | inactive |
| CG5882 | DRSC15907 | -3.31 | 0.607 | 1.39 | inactive |
| CG15641 | DRSC19677 | -0.917 | 0.822 | 1.2 | inactive |
| mrt | DRSC15484 | -0.321 | -0.218 | 0.0929 | inactive |
| mrt | DRSC29283 | -0.711 | -0.48 | -0.781 | inactive |
| CG10298 | DRSC12522 | -4.46 | -0.0894 | -0.0157 | inactive |
| CG10298 | DRSC25489 | -1.62 | -6.41 | -0.287 | active |
| CG11438 | DRSC11660 | 0.115 | 0.406 | 0.281 | inactive |
| CG34242 | DRSC38727 | 0.213 | 0.0642 | 0.769 | inactive |
| CG34309 | DRSC14838 | -0.193 | 0.078 | 0.535 | inactive |
| spri | DRSC17984 | -1.11 | 0.306 | 0.257 | inactive |
| spri | DRSC17985 | -4.48 | -0.968 | -1.49 | inactive |
| spri | DRSC17986 | 0.618 | 0.128 | -3.37 | inactive |
| spri | DRSC17989 | -0.638 | 0.975 | 0.954 | inactive |
| spri | DRSC22927 | -0.364 | 0.513 | -0.0289 | inactive |
| spri | DRSC28814 | 0.423 | 0.862 | 0.181 | inactive |
| CCT2 | DRSC18415 | -0.354 | 1.18 | -9.31 | inactive |
| CCT2 | DRSC27831 | -0.0542 | 0.0369 | -0.825 | inactive |
| CCT2 | DRSC38995 | 1.29 | 0.695 | -1.49 | inactive |
| CCT2 | DRSC40662 | 0.903 | 1.08 | 0.878 | inactive |
| CG5246 | DRSC15751 | -0.829 | -0.346 | 0.931 | inactive |
| CG5246 | DRSC30005 | 0.0481 | -0.628 | -4.16 | inactive |
| schlank | DRSC18102 | 0.296 | 0.747 | 0.102 | inactive |
| schlank | DRSC18313 | -0.0882 | 1.46 | -0.551 | inactive |
| CG1965 | DRSC12577 | -0.582 | 1.45 | 0.396 | inactive |
| CG1965 | DRSC21828 | -1.29 | -0.273 | -0.367 | inactive |
| dpr17 | DRSC12885 | 0.937 | 0.434 | -0.0798 | inactive |
| dpr17 | DRSC14958 | 0.452 | 1.2 | -0.0184 | inactive |
| mago | DRSC04703 | -1.89 | -0.0758 | 0.0742 | inactive |
